Pooled drug test results. Numbers come from NIAID ChemDB, via PubChem.

All rows: whole-cell or culture tests; organism: Hepatitis C virus; endpoint: EC50

a–b is a range or a potency band. Blank or dashed fields: not listed here. ECn is the concentration giving n% inhibition of infection, replication or growth. Conditions beyond the fields shown may differ between rows.

{"compound": "O=C(Nc1cccc(-c2cc(-c3c(F)cccc3C(F)(F)F)no2)c1)C(Cl)Cl", "method": "replicon", "result": "≤10 µM"}
{"compound": "CC(C)(C)C(=O)OCOC(=O)c1c(-c2cccn(COC(=O)C(C)(C)C)c2=O)c2c3occc3c(F)cc2n1Cc1cc(=O)n(COC(=O)C(C)(C)C)cc1F", "method": "replicon", "result": "<0.5 µM"}
{"compound": "CCOc1nc(NCc2ccc(F)cc2)nc2ccc(-c3ccc(S(N)(=O)=O)cc3)nc12", "method": "replicon", "result": "<0.1 µM"}
{"compound": "O=C(Nc1cccc(-c2cc(-c3c(Cl)cc(Cl)cc3OCCN3CCOCC3)no2)c1)C(Cl)Cl", "method": "replicon", "result": ">10 µM"}
{"compound": "COCCNc1nc(NC(C)C)c2nc(-c3ccc(F)cc3)ccc2n1", "method": "replicon", "result": "0.25–2 µM"}
{"compound": "COc1ccc2c(c1)C1CC1(C(=O)C1C3CCC1CN(C)C3)Cn1c-2c(C2CCCCC2)c2ccc(C(=O)NS(=O)(=O)CC(F)F)cc21", "strain or isolate": "1b", "method": "replicon", "result": "0.001–0.5 µM"}
{"compound": "CCCCOC(=O)[C@H](C)NP(=O)(/C=C/[C@@H]1C[C@@H](O)[C@H](n2nnc3c(N)nc(N)nc32)O1)N[C@@H](C)C(=O)OCCCC", "method": "replicon", "result": "10–100 µM"}
{"compound": "CC1CCC(C(=O)N(c2cc(-c3ccc(NC(=O)c4ccc(F)cc4)nc3)sc2C(=O)O)C(C)C)CC1", "strain or isolate": "1b", "method": "replicon", "result": "<0.5 µM"}
{"compound": "Oc1ccc(-c2[nH]c3cnccc3c2C2CCCCC2)cc1", "strain or isolate": "1b", "method": "replicon", "result": "<100 µM"}
{"compound": "O=C(Nc1cccc(-c2cc(-c3c(Cl)cccc3Cl)no2)c1)C(F)F", "method": "replicon", "result": ">10 µM"}
{"compound": "Fc1ccccc1-c1nc2ccn(Cc3ccc(-c4ccc(C(F)(F)F)cc4C(F)(F)F)nn3)cc-2n1", "strain or isolate": "1b", "method": "replicon", "result": "0.0006 µM"}
{"compound": "CCOc1nc(NCc2ccc(S(N)(=O)=O)cc2)nc2ccc(-c3ccc(NC(=O)N4CCCC4)cc3)nc12", "method": "replicon", "result": "<0.1 µM"}
{"compound": "O=C(O)c1c(-c2ccc[nH]c2=O)c2c3occc3c(F)cc2n1Cc1cc([N+](=O)[O-])ccc1F", "method": "replicon", "result": "<0.5 µM"}
{"compound": "COc1ccc2c(c1)[C@@H]1C[C@]1(C(=O)N1C3CCC1CN(C)C3)Cn1c-2c(C2CCCCC2)c2ccc(C(=O)N(C)S(=O)(=O)N(C)C)cc21", "strain or isolate": "1b", "method": "replicon", "result": "0.001–0.5 µM"}
{"compound": "CC1CCC(C(=O)N(c2cc(-c3ccc(NC(=O)c4cnco4)cc3)sc2C(=O)O)C(C)C)CC1", "strain or isolate": "1a", "method": "replicon", "result": ">0.5 µM"}
{"compound": "OC[C@@H]1C[C@@H](O)[C@H](n2cnc3c(-c4ccco4)ncnc32)O1", "method": "replicon", "result": ">10 µM"}
{"compound": "CCCCOC(=O)[C@H](C)NP(=O)(/C=C/[C@H]1O[C@@H](n2cnc3c(=O)[nH]c(N)nc32)[C@H](O)[C@@H]1O)N[C@@H](C)C(=O)OCCCC", "method": "replicon", "result": ">100 µM"}
{"compound": "COc1ccc2c(c1)[C@@H]1C[C@]1(C(=O)N1C3CCC1CN(C)C3)Cn1c-2c(C2CCCCC2)c2ccc(C(=O)O)cc21", "strain or isolate": "1b", "method": "replicon", "result": "0.001–0.5 µM"}
{"compound": "COc1c(-c2ccc3cc(NS(C)(=O)=O)ccc3c2)cc(-n2ccc(=O)[nH]c2=O)cc1C(C)(C)C", "strain or isolate": "genotype 1a H77", "method": "luciferase", "conditions": "0% human plasma", "result": "0.0077 µM"}
{"compound": "CS(=O)(=O)NC(=O)c1c(-c2ccc[nH]c2=O)c2c3occc3ccc2n1Cc1cc(F)ccc1F", "method": "replicon", "result": "<0.5 µM"}
{"compound": "CC(C)Oc1ccccc1-c1cc(-c2cccc(NC(=O)C(Cl)Cl)c2)on1", "method": "replicon", "result": "≤10 µM"}
{"compound": "COc1ncc(OC)c(N2CCN(S(=O)(=O)c3ccc(OC(F)(F)F)cc3)C(C(=O)NCc3ccc(OC(F)(F)F)cc3)C2)n1", "strain or isolate": "1a", "method": "replicon", "result": "2 µM"}
{"compound": "COc1ccc2c(c1)C1CC1(C(=O)N1[C@@H]3C[C@H]1CN(C(=O)OCc1ccccc1)C3)Cn1c-2c(C2CCCCC2)c2ccc(C(=O)NS(=O)(=O)N(C)C)cc21", "strain or isolate": "1b", "method": "replicon", "result": "0.001–0.5 µM"}
{"compound": "CNc1nc(N)nc2c1ncn2[C@@H]1O[C@H](/C=C/P(=O)(O)O)C[C@H]1O", "method": "replicon", "result": ">100 µM"}
{"compound": "Cc1cccc(-c2cc(-c3cccc(NC(=O)C(Cl)Cl)c3)on2)c1C", "method": "replicon", "result": ">10 µM"}
{"compound": "CO[C@@H]1[C@H](O)[C@@H](/C=C/P(=O)(O)O)O[C@H]1n1cnc2c(=O)[nH]c(N)nc21", "method": "replicon", "result": ">100 µM"}
{"compound": "Cc1ncnc2c1ncn2[C@@H]1O[C@H](CO)C[C@H]1O", "method": "replicon", "result": ">10 µM"}
{"compound": "CCCCOC(=O)[C@H](C)NP(=O)(/C=C/[C@@]1(N=[N+]=[N-])O[C@@H](n2ccc(=O)[nH]c2=O)[C@H](O)[C@@H]1O)N[C@@H](C)C(=O)OCCCC", "method": "replicon", "result": "10–100 µM"}
{"compound": "COC(=O)c1ccc(N2CCN(S(=O)(=O)c3ccc(OC(F)(F)F)cc3)C(C(=O)NCc3ccc(OC(F)(F)F)cc3)C2)nn1", "strain or isolate": "1b", "method": "replicon", "result": "0.14 µM"}
{"compound": "CCCCOC(=O)[C@H](C)NP(=O)(/C=C/[C@@]1(N=[N+]=[N-])O[C@@H](n2cnc3c(N)ncnc32)[C@H](O)[C@@H]1O)N[C@@H](C)C(=O)OCCCC", "method": "replicon", "result": ">100 µM"}
{"compound": "Nc1ccn([C@@H]2CC(CO)(CO)[C@@H](O)[C@]2(O)CCO)c(=O)n1", "strain or isolate": "1b", "method": "replicon", "result": "21.1 µM"}
{"compound": "Fc1cccc(-c2[nH]c3cnccc3c2C2CCCCC2)c1F", "strain or isolate": "1b", "method": "replicon", "result": "<100 µM"}
{"compound": "O=C(Nc1ccc(F)c(-c2cc(-c3c(Cl)cccc3Cl)no2)c1)C(Cl)Cl", "method": "replicon", "result": "≤10 µM"}
{"compound": "CC1CCC(C(=O)N(c2cc(-c3ccc(NC(=O)c4c(F)cccc4F)cc3)sc2C(=O)O)C(C)C)CC1", "strain or isolate": "1b", "method": "replicon", "result": "<0.5 µM"}
{"compound": "NS(=O)(=O)c1ccc(CNc2nc(NCC(F)(F)F)c3nc(-c4ccnc(C(F)(F)F)c4)ccc3n2)cc1", "method": "replicon", "result": "<0.1 µM"}
{"compound": "COc1ccc2c(c1)[C@H]1C[C@@]1(C(=O)N1[C@@H]3C[C@H]1CN(C)C3)Cn1c-2c(C2CCCCC2)c2ccc(C(=O)NS(=O)(=O)N(C)C)cc21", "strain or isolate": "1b", "method": "replicon", "result": "0.001–0.5 µM"}
{"compound": "CC(C)c1cccc(C(F)(F)F)c1-c1cc(-c2cccc(NC(=O)C(Cl)Cl)c2)on1", "method": "replicon", "result": "≤10 µM"}
{"compound": "Cc1cc(-c2nnc(N[C@@H]3CCC[C@H](O)C3)o2)nc2c(C(C)(C)C)cc(OCC(F)(F)F)cc12", "strain or isolate": "WT 1b", "method": "luciferase", "result": "0.00032 µM"}
{"compound": "COc1nc(N)nc2c1ncn2[C@@H]1O[C@H](COP(=O)(N[C@@H](C)C(=O)OC(C)C)Oc2ccccc2)[C@@H](O)[C@@]1(C)F", "strain or isolate": "2a", "method": "replicon", "conditions": "20 d", "result": "0.032 µM"}
{"compound": "CCOC(=O)Cc1cn(Cc2c(CC)sc3ccc(Cl)cc23)c2cc(-c3cc([N+](=O)[O-])cc([N+](=O)[O-])c3)ccc12", "result": ">50 µM"}
{"compound": "CC1CCC(C(=O)N(c2cc(-c3ccc(NC(=O)c4ccccn4)cc3)sc2C(=O)O)C(C)C)CC1", "strain or isolate": "1a", "method": "replicon", "result": "<0.5 µM"}
{"compound": "Cc1cc2ccc3c(c(-c4ccc[nH]c4=O)c(C(=O)NS(C)(=O)=O)n3Cc3cc(F)ccc3F)c2o1", "method": "replicon", "result": ">1.5 µM"}
{"compound": "CCc1cc2c(cc1F)c(C#N)c(-c1ccc(S(=O)(=O)N[C@@H](C)C(F)(F)F)cn1)n2-c1ncccn1", "strain or isolate": "1b", "method": "PCR", "result": "0.0017 µM"}
{"compound": "O=C(O)c1c(-c2ccc[nH]c2=O)c2c3occc3ccc2n1Cc1cc(F)ccc1F", "method": "replicon", "result": "<0.5 µM"}
{"compound": "Cn1ccc2c(C3CCCCC3)c(-c3ccccc3)nc-2c1", "strain or isolate": "1b", "method": "replicon", "result": "<100 µM"}
{"compound": "Cc1cc(C(=O)Nc2ccc(-c3cc(N(C(=O)C4CCC(C)CC4)C(C)C)c(C(=O)O)s3)cc2)on1", "strain or isolate": "1b", "method": "replicon", "result": "<0.5 µM"}
{"compound": "OC[C@@H]1C[C@@H](O)[C@H](n2cnc3c(-c4cccs4)ncnc32)O1", "method": "replicon", "result": ">10 µM"}
{"compound": "CC(C)(C)OC(=O)N1CCC(NS(=O)(=O)c2cc(-c3ccc4nc(NCc5ccc(S(N)(=O)=O)cc5)nc(NCC(F)(F)F)c4n3)ccc2Cl)CC1", "method": "replicon", "result": "<0.1 µM"}
{"compound": "Fc1cccc(-c2cc3cn(Cc4nnc(-c5ccc(Cl)cc5)s4)ccc-3n2)c1F", "strain or isolate": "1b", "method": "replicon", "result": "<100 µM"}

Repeating the first 6 entries:

compound,strain or isolate,method,conditions,result
O=C(Nc1cccc(-c2cc(-c3c(F)cccc3C(F)(F)F)no2)c1)C(Cl)Cl,,replicon,,≤10 µM
CC(C)(C)C(=O)OCOC(=O)c1c(-c2cccn(COC(=O)C(C)(C)C)c2=O)c2c3occc3c(F)cc2n1Cc1cc(=O)n(COC(=O)C(C)(C)C)cc1F,,replicon,,<0.5 µM
CCOc1nc(NCc2ccc(F)cc2)nc2ccc(-c3ccc(S(N)(=O)=O)cc3)nc12,,replicon,,<0.1 µM
O=C(Nc1cccc(-c2cc(-c3c(Cl)cc(Cl)cc3OCCN3CCOCC3)no2)c1)C(Cl)Cl,,replicon,,>10 µM
COCCNc1nc(NC(C)C)c2nc(-c3ccc(F)cc3)ccc2n1,,replicon,,0.25–2 µM
COc1ccc2c(c1)C1CC1(C(=O)C1C3CCC1CN(C)C3)Cn1c-2c(C2CCCCC2)c2ccc(C(=O)NS(=O)(=O)CC(F)F)cc21,1b,replicon,,0.001–0.5 µM